A mixed list of measured activities; the numbers were collected in NIAID ChemDB.

Shared fields: enzyme or target tests; species: HIV-1; target: Integrase; read by: strand transfer; read-out: IC50

Rows are shuffled and stem from different studies. ICn is the concentration giving n% inhibition. An empty or dashed field is not shown. a–b is a range or a potency band.

SMILES	strain or isolate	result
CC(=O)/C(N=Nc1ccc(S(=O)(=O)c2ccc(N=N/C(C(C)=O)=C(/C)O)cc2)cc1)=C(\C)O		90 µM
CCOc1ccc(C(C2=C(O)c3ccccc3C(=O)C2=O)C2=C(O)c3ccccc3C(=O)C2=O)cc1OC		>100 µM
O=C(NC1CCCC1)C1C(=O)N(O)C(=O)c2ccccc21		2.86 µM
CCCCCCCNC1=C(O)c2ccccc2C(=O)C1=O		>100 µM
O=c1ccccc(-c2cncnc2)c1O		>1000 µM
CCOC(=O)C1C/C(=C\c2ccc(O)c(O)c2)C(=O)/C(=C/c2ccc(O)c(O)c2)C1		0.4 µM
N#C/C(=C\c1ccc(O)c(O)c1)C(=O)NCCc1ccc(O)c(O)c1		2.7 µM
O=C(NCCCl)Nc1ccc(S(=O)(=O)c2ccc([N+](=O)[O-])cc2)cc1		>100 µM
O=C1OC[C@H]2[C@H](c3ccc(O)c(O)c3)c3cc(O)c(O)cc3C[C@H]12	HXB2	0.3 µM
O=C(Nc1ccc(F)cc1)c1c(O)n(O)c(=O)c2cc([N+](=O)[O-])ccc12		0.01 µM
O=C1c2ccccc2SCC2CSC(c3ccccc3)N12		332 µM
Nc1ccn([C@H]2C[C@H](OP(=O)(O)OC[C@H]3OC[C@@H](n4ccc(=O)[nH]c4=O)[C@@H]3O)[C@@H](COP(=O)(O)O)O2)c(=O)n1		43 µM
N#C/C(=C\c1ccc(O)c(O)c1)C(=O)NCc1cccc(CNC(=O)/C(C#N)=C/c2ccc(O)c(O)c2)c1		5–10 µM
CN1CCC(C2Sc3ccccc3C(=O)N3CCCC23)CC1		>125 µM
O=c1oc2ccccc2c(O)c1Cc1c(O)c2ccccc2oc1=O		>100 µM
O=c1ccc(-c2ccsc2)c(O)c(O)c1O		2.6 µM
N#C/C(=C\c1cc(O)c(O)c(Br)c1)C(=O)NCCCNC(=O)/C(C#N)=C/c1cc(O)c(O)c(Br)c1		0.4 µM
O=C1Sc2ccc(Cl)cc2C(=O)N2CS(=O)CC12		240 µM
C=C(CC[C@@H](C)[C@H]1CC=C2C3=C([C@@H](O)[C@H](OC(C)=O)[C@@]21C)[C@@]1(C)C[C@@H](O)[C@H](OS(=O)(=O)O)C(C)(C)[C@@H]1CC3)C(C)C		9 µM
O=[N+]([O-])c1ccccc1S(=O)(=O)c1ccccc1[N+](=O)[O-]		>100 µM
O=C(NCCc1ccc(F)cc1)c1c(O)n(O)c(=O)c2cc([N+](=O)[O-])ccc12		0.03 µM
O=C1C(=O)N(CC2CC2)C(c2ccccc2)/C1=C(/O)c1ccccc1		>100 µM
Nc1ccc2c(c1)C(=O)N(O)C(=O)C2C(=O)NCc1ccc(F)cc1		0.382 µM
O=[N+]([O-])c1cc(S(=O)(=O)c2ccc(N(CCO)CCO)c([N+](=O)[O-])c2)ccc1N(CCO)CCO		>100 µM
CCOC(=O)CC1C/C(=C\c2ccc(O)c(O)c2)C(=O)/C(=C/c2ccc(O)c(O)c2)C1		4.3 µM
N#CC(C#N)=NNc1ccc(S(=O)(=O)c2ccc(NN=C(C#N)C#N)cc2)cc1		21.9 µM
O=C1NC(=S)NC(=O)C1=Cc1cc(O)c(O)c(O)c1		1.6 µM
Cc1cc([N+](=O)[O-])c(S(=O)(=O)c2ccccc2)c([N+](=O)[O-])c1		>100 µM
O=c1cc2ccccc2c(O)n1O		2.89 µM
COc1ccccc(-c2cncnc2)c1=O		>1000 µM
Nc1ccn([C@@H]2CO[C@H](COP(=O)(O)O[C@H]3[C@H](n4cnc5c(N)ncnc54)CO[C@@H]3COP(=O)(O)O)[C@H]2O)c(=O)n1		>1000 µM
O=C1C(=Cc2ccc(Cl)c(Cl)c2)CCCC1=Cc1ccc(Cl)c(Cl)c1		>100 µM
N#CC(C#N)=Cc1cc(O)c(O)c(O)c1		5–10 µM
COc1cc(/C=C/C(=O)CC(=O)/C=C/c2ccc(O)c(OC)c2)ccc1O		40 µM
C=CCNC(=O)C1C(=O)N(O)C(=O)c2ccccc21		50 µM
Cc1cn([C@@H]2CO[C@H](COP(=O)(O)O[C@H]3C[C@H](n4ccc(N)nc4=O)O[C@@H]3COP(=O)(O)O)[C@H]2O)c(=O)[nH]c1=O		58 µM
CCCCCCCCCCCCNC(=O)C1C(=O)N(O)C(=O)c2ccccc21		20.73 µM
O=C(O)c1ccc(S(=O)(=O)c2ccc(C(=O)O)c([N+](=O)[O-])c2)cc1[N+](=O)[O-]		83 µM
O=C(NCc1ccccc1)c1c(O)n(O)c(=O)c2cc([N+](=O)[O-])ccc12		0.003 µM
Nc1ccn([C@H]2C[C@H](O)[C@@H](COP(=O)(O)O[C@H]3C[C@H](n4cnc5c(N)ncnc54)O[C@@H]3COP(=O)(O)O)O2)c(=O)n1		3 µM
O=C(Nc1ccc([N+](=O)[O-])cc1)C(=S)NN1C(=O)/C(=C\c2ccc(Cl)cc2)SC1=S		>100 µM
Nc1ccc(S(=O)(=O)c2ccc(N)cc2)cc1		>100 µM
COc1cc(/C=C/c2ccc3c(C(=O)O)cc(C(=O)O)c(O)c3n2)cc(O)c1O		0.007 µM

For reference, 4 entries again:

SMILES,strain or isolate,result
CN1CCC(C2Sc3ccccc3C(=O)N3CCCC23)CC1,,>125 µM
O=[N+]([O-])c1ccccc1S(=O)(=O)c1ccccc1[N+](=O)[O-],,>100 µM
Cc1cn([C@@H]2CO[C@H](COP(=O)(O)O[C@H]3C[C@H](n4ccc(N)nc4=O)O[C@@H]3COP(=O)(O)O)[C@H]2O)c(=O)[nH]c1=O,,58 µM
Nc1ccn([C@H]2C[C@H](OP(=O)(O)OC[C@H]3OC[C@@H](n4ccc(=O)[nH]c4=O)[C@@H]3O)[C@@H](COP(=O)(O)O)O2)c(=O)n1,,43 µM